Reference: PubChem BioAssay AID488862 (Broad Institute, 2010)
This is a selection; strong and weak results do not stand in their true shares. Activity calls are given as the source filed them. No stated cut-off is given here; in the data, active means inhibition above about 52%; inactive means the rest.

Assay: suppresses PrP 5' UTR mRNA reporter expression (AID 488862); further: 0 = median of the neutral control wells
Conditions: cell-based PrP 5' UTR mRNA reporter, plate reader; hits give high values; concentration not given here

With `Cc1cc(C)cc(N(C(=O)c2ccccc2)C2CCN(C(=O)OC(C)(C)C)CC2)c1` as the compound, how does the inhibition read?
Its inhibition is inactive: -19.5%.

Which inhibition does the source give for `O=C(NCC1(N2CCCCC2)CCCCC1)c1ccc(Cl)nc1` here?
Its inhibition is inactive: -2.76%.

For `O=C(NCC1(N2CCOCC2)CCCCC1)c1cc2ccccc2o1`, which inhibition is on record?
The inhibition was inactive: -16.4%.

Which inhibition does the source give for `COc1ccc(Cl)cc1C(=O)NCC1(N2CCOCC2)CCCCC1` here?
The inhibition was inactive: -9.7%.

With `O=C(OC1CN2CCC1CC2)C1c2ccccc2Oc2ccccc21` (configuration not stated) as the compound, how does the inhibition read?
The inhibition was inactive: -30.6%.

With `O=C(NCC1(N2CCCCC2)CCCCC1)c1ccc(Cl)s1` as the compound, how does the inhibition read?
The inhibition was inactive: 8.22%.

For `N#CC1(Nc2ccccc2)CCN(Cc2ccccc2)CC1`, which inhibition is on record?
Its inhibition is inactive: -12.8%.

Which inhibition does the source give for `CCOC(=O)N1CCC(Nc2ccc(OC)cc2)CC1` here?
The inhibition was inactive: -12.9%.

Which inhibition does the source give for `CC(C)(C)OC(=O)N1CCC(N(C(=O)c2ccccc2)c2ccc(F)cc2)CC1` here?
The inhibition was inactive: -14.4%.

With `COc1ccc(C(=O)NCC2(N3CCCCC3)CCCCC2)c(OC)c1OC` as the compound, how does the inhibition read?
Its inhibition is inactive: -0.113%.

Which inhibition does the source give for `COc1ccc(C(=O)NCC2(N3CCCCC3)CCCCC2)cc1` here?
Its inhibition is inactive: -16.6%.

Which inhibition does the source give for `O=C(NCC1(N2CCCCC2)CCCCC1)c1cccs1` here?
Its inhibition is inactive: -6.86%.

With `O=C(NCC1(N2CCCCC2)CCCCC1)c1ccc(=O)[nH]c1` as the compound, how does the inhibition read?
The inhibition was inactive: -5.56%.

With `Cc1cccc(NC2(C#N)CCN(Cc3ccccc3)CC2)c1` as the compound, how does the inhibition read?
Its inhibition is inactive: -21.4%.

For `CSc1ccccc1C(=O)NCC1(N2CCCCC2)CCCCC1`, which inhibition is on record?
The inhibition was inactive: -11.8%.

For `COc1cc(C(=O)NCC2(N(C)C)CCCCC2)ccc1OC(F)F`, which inhibition is on record?
The inhibition was inactive: -19.9%.

With `CCOC(=O)N1CCC(Nc2cccc(C)c2)CC1` as the compound, how does the inhibition read?
Its inhibition is inactive: -29.5%.

Which inhibition does the source give for `O=C1CCN(Cc2ccccc2)CC1` here?
The inhibition was inactive: 19.4%.

Which inhibition does the source give for `CCOc1ccc(C)cc1CN(CCCl)CCCl` here?
The inhibition was inactive: -9.49%.

Which inhibition does the source give for `CCOC(=O)N1CCC(Nc2ccc(F)cc2)CC1` here?
Its inhibition is inactive: -6.3%.

Which inhibition does the source give for `O=C(NCC1(N2CCCCC2)CCCCC1)c1ccc(F)cc1` here?
The inhibition was inactive: -7.85%.

For `O=P1(N(CCCl)CCCl)SCCCS1`, which inhibition is on record?
The inhibition was inactive: 1.97%.

With `CCCCOc1ccc(C(=O)NCC2(N3CCOCC3)CCCCC2)cc1` as the compound, how does the inhibition read?
Its inhibition is inactive: 1.63%.

For `O=C(NCC1(N2CCCCC2)CCCCC1)c1cccc(C(F)(F)F)c1`, which inhibition is on record?
The inhibition was inactive: -14%.

Which inhibition does the source give for `COc1cc(C(=O)NCC2(N3CCCCC3)CCCCC2)ccc1OC(F)F` here?
The inhibition was inactive: 0.18%.

Which inhibition does the source give for `O=C(NCC1(N2CCOCC2)CCCCC1)c1cc(=O)[nH]c2ccccc12` here?
Its inhibition is inactive: -21.3%.

With `CN1CCN(CCOC(=O)C(O)(c2ccccc2)c2ccccc2)CC1` as the compound, how does the inhibition read?
The inhibition was inactive: -29.9%.

With `CC(C)c1ccc(C(=O)NCC2(N3CCOCC3)CCCCC2)cc1` as the compound, how does the inhibition read?
Its inhibition is inactive: -34.2%.

Which inhibition does the source give for `COc1ccc(NC2CCN(C(=O)OC(C)(C)C)CC2)cc1` here?
Its inhibition is inactive: -58.3%.

Which inhibition does the source give for `O=C(NCC1(N2CCCCC2)CCCCC1)c1ccc(OC(F)F)cc1` here?
The inhibition was inactive: -9.2%.

Which inhibition does the source give for `N#CC1(Nc2ccccc2)CCN(CCc2ccccc2)CC1` here?
The inhibition was inactive: -8.17%.

With `CCN1CCC(Nc2ccc(Cl)cc2)CC1` as the compound, how does the inhibition read?
The inhibition was inactive: -20.9%.

For `O=C(NCC1(N2CCCCC2)CCCCC1)c1cccc([N+](=O)[O-])c1`, which inhibition is on record?
The inhibition was inactive: -10.2%.

With `CSc1ccc(C(=O)NCC2(N3CCOCC3)CCCCC2)cc1` as the compound, how does the inhibition read?
Its inhibition is inactive: -32.8%.

With `O=C(NCC1(N2CCCCC2)CCCCC1)c1cncc(Br)c1` as the compound, how does the inhibition read?
The inhibition was inactive: -7.47%.

For `CN1CCC(Nc2cccc(F)c2)CC1`, which inhibition is on record?
Its inhibition is inactive: -1.53%.

For `CC(C)c1ccc(NC2CCN(C(=O)OC(C)(C)C)CC2)cc1`, which inhibition is on record?
The inhibition was inactive: -49.8%.

For `CN(C)c1cccc(C(=O)NCC2(N3CCCCC3)CCCCC2)c1`, which inhibition is on record?
The inhibition was inactive: -32.4%.

Which inhibition does the source give for `COc1ccc(CN(CCCl)CCCl)cc1Cl` here?
Its inhibition is inactive: -1.52%.

For `O=C(NCC1(N2CCOCC2)CCCCC1)c1cc(F)c(F)cc1Cl`, which inhibition is on record?
The inhibition was inactive: -10.5%.

Which inhibition does the source give for `COc1cc(OC)c(C(=O)NCC2(N(C)C)CCCCC2)cc1OC` here?
The inhibition was inactive: -16.9%.

With `CCOC(=O)N1CCC(Nc2ccc(C)cc2)CC1` as the compound, how does the inhibition read?
The inhibition was inactive: -17.7%.

Which inhibition does the source give for `N/C(=N\O)c1c(N)no[n+]1[O-]` here?
The inhibition was inactive: -21%.

With `O=C(OC1CN2CCC1CC2)C1c2ccccc2C=Cc2ccccc21` (configuration not stated) as the compound, how does the inhibition read?
The inhibition was inactive: -59.3%.

For `COc1cc(C(=O)NCC2(N3CCOCC3)CCCCC2)cc(OC)c1C`, which inhibition is on record?
Its inhibition is inactive: -17.6%.

Which inhibition does the source give for `O=C(NCC1(N2CCOCC2)CCCCC1)c1cc(Br)ccc1Cl` here?
Its inhibition is inactive: -14%.

With `COc1ccc(C(=O)NCC2(N3CCOCC3)CCCCC2)cc1OC` as the compound, how does the inhibition read?
Its inhibition is inactive: -2.27%.

With `CN(C)C1(CNC(=O)c2cccc(C#N)c2)CCCCC1` as the compound, how does the inhibition read?
The inhibition was inactive: 13.5%.

Which inhibition does the source give for `Cc1cc(N(CCCl)CCCl)ccc1C=O` here?
Its inhibition is inactive: -21.2%.

With `CCCN1CCC(Nc2cc(OC)cc(OC)c2)CC1` as the compound, how does the inhibition read?
Its inhibition is inactive: 8.9%.

Which inhibition does the source give for `c1ccc(CN2CCC(Nc3ccccc3)CC2)cc1` here?
Its inhibition is inactive: 1.35%.

With `N#Cc1ccc(C(=O)NCC2(N3CCCCC3)CCCCC2)cc1` as the compound, how does the inhibition read?
Its inhibition is inactive: 4.28%.

Which inhibition does the source give for `CC(C)(C)OC(=O)N1CCC(N(C(=O)c2ccccc2)c2ccc(Cl)cc2)CC1` here?
Its inhibition is inactive: -9.8%.

Which inhibition does the source give for `CCN1CCC(Nc2cccc(F)c2)CC1` here?
Its inhibition is inactive: -13.7%.

For `Cc1ccccc1NC1(C#N)CCN(Cc2ccccc2)CC1`, which inhibition is on record?
The inhibition was inactive: -16.7%.

Which inhibition does the source give for `Cn1c(=O)[nH]cc(N(CCCl)CCCl)c1=O` here?
The inhibition was inactive: -10.8%.

Which inhibition does the source give for `CN(C)c1ccc(C(=O)NCC2(N3CCCCC3)CCCCC2)cc1` here?
The inhibition was inactive: -18.9%.

Which inhibition does the source give for `O=C(NCC1(N2CCCCC2)CCCCC1)c1ccco1` here?
The inhibition was inactive: -9.04%.

Which inhibition does the source give for `CC(=O)N(c1ccccc1)C1CCNCC1` here?
Its inhibition is inactive: -9.34%.

Which inhibition does the source give for `COc1cc(OC)cc(C(=O)NCC2(N3CCCCC3)CCCCC2)c1` here?
Its inhibition is inactive: -24.1%.

Which inhibition does the source give for `Fc1ccccc1NC1CCN(Cc2ccccc2)CC1` here?
Its inhibition is inactive: 5.45%.

With `Cc1ccc(C(=O)NCC2(N3CCCCC3)CCCCC2)o1` as the compound, how does the inhibition read?
The inhibition was inactive: -5.92%.

With `Cc1ccc(NC2(C#N)CCN(Cc3ccccc3)CC2)cc1` as the compound, how does the inhibition read?
The inhibition was inactive: -2.74%.

Which inhibition does the source give for `COc1cc(OC)cc(C(=O)NCC2(N3CCOCC3)CCCCC2)c1` here?
Its inhibition is inactive: -13.5%.

With `COc1cccc(C(=O)N(c2cc(C)cc(C)c2)C2CCN(C(=O)OC(C)(C)C)CC2)c1` as the compound, how does the inhibition read?
The inhibition was inactive: -23%.

With `CCC(CO)(C(=O)OC1CN2CCC1CC2)c1ccccc1` (configuration not stated) as the compound, how does the inhibition read?
The inhibition was inactive: -12.4%.

For `CN1CCC(Nc2ccc(Cl)cc2)CC1`, which inhibition is on record?
The inhibition was inactive: -0.688%.

With `CN1CCC(Nc2ccc(F)c(Cl)c2)CC1` as the compound, how does the inhibition read?
The inhibition was inactive: -32.3%.

With `CCOc1ncccc1C(=O)NCC1(N2CCOCC2)CCCCC1` as the compound, how does the inhibition read?
Its inhibition is inactive: -32.3%.

For `O=C(O)C1(Nc2ccccc2)CCN(Cc2ccccc2)CC1`, which inhibition is on record?
The inhibition was inactive: -7.03%.

Which inhibition does the source give for `CC(C)(C)OC(=O)N1CCC(Nc2ccccc2)CC1` here?
Its inhibition is inactive: -9.7%.

For `CCCOc1ccc(C(=O)NCC2(N(C)C)CCCCC2)cc1`, which inhibition is on record?
Its inhibition is inactive: -12.1%.
